Measured values from patent publication US20260069689A1, “ANTI-SARS-COV-2-SPIKE GLYCOPROTEIN ANTIBODIES AND ANTIGEN-BINDING FRAGMENTS” (Regeneron, published 2026).

B1: mAb14315 (antibody, V domains shown)
VH: QVQLVQSGAEVKKPGSSVKVSCKASGDTFSTYAINWVRQAPGQGLEWMGRFIHIFGTANYAQKFQGRVTITADESTSTAYMELRSLRSEDTAVYYCARDGVDYGDYRPDYWGQGTLVTVSS
VL: EIVLTQSPGTLSLSPGERATLSCRASQSVSSNYLAWYQQKPGQAPRLLIYGASSRATGIPERFSGSGSGTDFTLTISRLEPEDFAVYYCQQYGSSLYTFGQGTKLEIKR
B2: mAb14316 (antibody, V domains shown)
VH: QVQLVQSGAEVKKPGSSVKVSCKAPGGTFSTYAINWVRQAPGQGLEWMGRIVPFFGTTNYAQKFQGRVTITADESTSTAYMELSSLTSEDTAVYYCARGPRPFGELLYWGQGTLVTVSS
VL: DIQMTQSPSSLSASVGDRVTITCQASQDISNYLNWYQQKPGKAPKLLIYDASNLETGVPSRFSGSGSGTDFTFTISSLQAEDIATYYCQQYDNLLFTFGPGTKVDIKR
B3: mAb14259 (antibody, V domains shown)
VH: EVQLVESGGGLVQPGGSLRLSCAASGFPFSTYEMNWVRQAPGKGLEWVSYISSSGNTIYYADSVKGRFTISRDNAKNSLYLQMNTLRAEDTAVYYCARDAVRDHDILTDPATFDPWGQGTLVTVSS
VL: DIVMTQSPLSLPVTPGEPASISCRSSQTLLHSNGYNYLDWYLQKPGQSPQLLIHLGSNRASGVPDRFSGSGSVTDFTLKISRVEAEDVGVYYCMQALQTPYTFGQGTKLEIKR
B4: mAb14230 (antibody, V domains shown)
VH: EVQLVESGGGLIQPGRSLRLSCAASGFTFDDYAMHWVRQAPGKGLEWVSGISWNSVSIDYADSVKGRFTISRDNAKNSLYLQMTSLTVEDTALYYCAKAFGYETLTGSDYFAYWGPGTLVTVSS
VL: EIVLTQSPGTLSLSPGERATLSCRASQTVISTYLAWYQQKPGQSPRLLIYGASSRATGIPDRFSGSGSGTDFTLTISRLEPEDFAVYYCQQYGSSPQLTFGGGTKVEIKR
B5: mAb14247 (antibody, V domains shown)
VH: QITLKESGPTLVKPTQTLTLTCTFSGFSLSTSAVGVGWIRQPPGKALEWLALIYWDDDKRYSPSLKSRLTITKDTSKNQLVLTMTNVDPVDTATYYCAHHTIQLIFDYWGQGTLVTVSS
VL: QSALTQPASVSGSPGQSITISCTATSSDVGNYNYVSWYQQHPGKAPKLMIYEVSNRPSGVSNRFSGSKSGNTASLTISGLQAEDEADYYCSSYTSSSTPLVFGGGTKLTVLG
B6: mAb14255 (antibody, V domains shown)
VH: QVQLQESGPGLVKPSETLSLTCTVSGGSISGYYWSWIRQPPGKGLDWIGYIYYRGNTNYNPSLKSRVTISVDTSNNQFSLKLSSVTAADTAVYYCARYGEGYGDASGYHFDYWGQGTLVTVSS
VL: QSALTQPASVSGSPGQSITISCTGTSSDVGSYNLVSWYQQHPGKAPKLMIYEDSKRPSGVANPFSGSKSGNTASLTISGLQAEDEADYYCSSYAGSSTWVFGGGTKLTVLG
B7: mAb14257 (antibody, V domains shown)
VH: EVQLVESGGGLVQPGGSLRLSCAASGFTVSRSYMNWVRQAPGKGLEWVSVVFTGGTTKHTDSVKGRFTISRDNSMNTLYLQMNSLRPEDTAVYYCARVAIVETTGAFDIWGQGTMVTVSS
VL: QSVLTQPPSVSGAPGQRVTISCTGTSSNIGADFDVHWYQQFPGTAPKLLIYGHTNRPSGIPDRFSGSKSGTSASLAITGLQAEDEADYYCQSYDSSLSGSVVFGGGTKLTVLG
B8: mAb14258 (antibody, V domains shown)
VH: QLQLQESGPGLVKPSETLSLICTGSGDSISSSHYYWGWIRQPPGKGLEWIGSTYFSGSTYYNPSLKSRVSISVDTSKNQVSLKLISVTAADTAVYYCAREMGATLGDYWGPGTLVTVSS
VL: QSVLTQPPSASGTPGQRVTISCSGSSSNIGNNYVYWYQQFPGTTPRLLIYRNNERPSGVPDRFSGSKSGTSASLVISGLRSEDEADYYCAAWDDSLSAHYVFGTGTKVTVLG
B9: mAb14280 (antibody, V domains shown)
VH: QVQLVQSGAEVKKPGASVRVSCKASGYTFTGNYIHWVRQAPGQGLEWMAWINPNSGGKNYAQKFQGRVTLTRDTSVNTAYMELSRLRSDDTAMYYCARDVNYNILTGPGGLWGQGTLVTVSS
VL: QSALTQPPSASGSPGQSVTISCTGTSSDVGGYNFVSWYQQHPGKAPKLMIYEVSKRPSGVPDRFSGSKSGNTASLTVSGLQAEDEADYYCSSYAGSNNFVFGTGTKVTVLG
B10: mAb14281 (antibody, V domains shown)
VH: QVQLVQSGADVKKPGASVKVSCKTSGYIFTGYYIHWVRQAPGQGLEWMGWINPNSGGTNSAQKFQGRVTMTRDTSISTVYMELSRLRSDDTAVYYCAKSNSFSVLDYNFDYWGQGTLVTVSS
VL: SSELTQDPAVSVALGQTVRITCQGDSLRSYYASWYQQKPGQAPVLVIYDKNNRPSGIPDRFSGSSSGNTASLTITGAQAEDEADYYCNSRDSSRNHLVVFGGGTKLTVLG
B11: mAb14282 (antibody, V domains shown)
VH: QVQLVQSGAEVKKPGASVKVSCKASGYIFTDHYMHWVRQAPGQGLEWMGWINPNSGATNYAQNFQGRVTMTRDTSIITVYMELSRLRSDDTAVYYCARDSSPYMIRYTMDVWGQGTTITVSS
VL: QSALTQPASVSGSPGQSITISCTGTSSDVGSYNLVSWYQQHPGKAPKLMIYELTKRPSGVSNRFSGSKSGNTASLTISGLQAEDEADYYCSSYRGSVTDVVFGGGTKLTVLG
B12: mAb14256 (antibody, V domains shown)
VH: QVQLQESGPGLVKPSETLSLTCTVSGGSISSHYWSWIRQPPGKGLEWIGYIYYSGSSNYNPSLKSRVTISVDTSKNQFSLKLNSVTAADTAVYYCARHYDILTGFDWFDPWGQGTLVTVSS
VL: QSVLTQPPSVSGAPGQRVTISCTGSSSNIGTHYDVHWYQQLPGTAPKLLIYGNSNRPSGVPDRFSGSKSGTSASLAITGLQAEDEADYYCQSFDNSLTAPYVFGTGTKVTVLG
B13: mAb14232 (antibody, V domains shown)
VH: QITLKESGPTLVKPTQTLTLTCTFSGFSLSASGVGVGWIRQPPGKALEWLALIYWDDDKRYSPSLKSRLTITKDTSKNQVVLTMTNMDPVDTATYYCAQHKVATIFDYWGQGTLVTVSS
VL: QSALTQPPSASGSPGQSVTISCTATSSDVGNYNYVSWYQQHPGKAPKLMIYEVTKRPSGVPDRFSGSKSGNTASLTVSGLQAEDEADYYCSSYAGSWGVFGGGTKLTVLG

Key:
[1] = target: full-length SARS-CoV-2 spike protein (Wuhan-Hu-1) on Jurkat/hCD20 cells (SARS-CoV-2, UniProt P0DTC2 14-1273); assay: cell-based or functional assay
[2] = target: T1, SARS-COV-2 RBD-MMH (SARS-COV-2 RBD extracellular domain with C-terminal myc-myc-hexahistidine tag) (SARS-CoV-2); assay: SPR 37C, mAb captured, 90 nM RBD-MMH, dissociation pH 6.0
[3] = target: T1, SARS-COV-2 RBD-MMH (SARS-COV-2 RBD …); assay: SPR 37C, mAb captured, 90 nM RBD-MMH, dissociation pH 7.4
[4] = target: SARS-CoV-2 RBD.mmh (Spike amino acids Arg319-Phe541 with C-terminal myc-myc-6-Histidine tag) (SARS-CoV-2, UniProt P0DTC2 319-541)

Binder	EC50 [M] of ADCP, macrophages, Jurkat/hCD20/SARS-CoV-2 spike cells [1]	Max % ADCP, macrophages, Jurkat/hCD20/SARS-CoV-2 spike cells [1]	RBD.mmh Bound at pH 7.4 (RU) [2]	RBD.mmh Bound at pH 7.4 (RU) [3]	% Blocking at 100 nM mAb concentration [4]	koff [2]	koff [3]
B1	6.3e-11 M	34.8%					
B2	2.54e-10 M	37.7%					
B3		39.6%					
B4			70.7 RU	67.6 RU	85%		
B5			43.8 RU	40.8 RU	95%		
B6			96.4 RU	97.5 RU	92%		
B7			91.3 RU	82.3 RU	95%		
B8			85 RU	85.9 RU	93%	0.000548 s⁻¹	0.00213 s⁻¹
B9			78.4 RU	72.4 RU	98%		
B10			85.2 RU	83.5 RU	100%		
B11			83.5 RU	73.5 RU	96%		
B12			84.4 RU	80.2 RU			
B13			23 RU	8.2 RU			
